Where “and” joins values, the source holds several entries; their conditions need not be identical. Equal entries are not always repeated.

Test [1] concerns Cd7α-HSDH. Briefly: Inhibition of Cd7α-HSDH by the product 7-KLCA, photometric assay with 1 mM CDCA.
Test [2] addresses wild-type Cd7α-HSDH (Clostridioides difficile, UniProt Q18CF0). Put plainly: Kinetic parameters of wild-type Cd7α-HSDH, photometric enzyme assay.
Test [3] concerns the target Cd7α-HSDH [A37D] mutant (Clostridioides difficile, UniProt Q18CF0, A37D). Put plainly: Kinetic constants of Cd7α-HSDH [A37D] mutant.
Setting [4] is: 7-KLCA varied, co-substrate constant 0.2 mM NADPH (reduction).
Setting [5] is: NADP^+ varied 1 μM-10 mM, co-substrate constant 1 mM CA.
The mark [6] stands for this setting: NADP^+ varied 1 μM-10 mM, co-substrate constant 1 mM CDCA.
[7] abbreviates: higher concentrations of CDCA or NADP^+, cofactor NADP^+.
Setting [8] is: CDCA varied 5 μM-30 mM, constant 0.5 mM NAD^+.
The mark [9] stands for this setting: bile acid varied 5 μM-30 mM, co-substrate constant 0.5 mM NADP^+ (oxidation).

As for `C[C@H](CCC(=O)O)[C@H]1CC[C@H]2[C@@H]3C(=O)C[C@@H]4C[C@H](O)CC[C@]4(C)[C@H]3CC[C@]12C`, the “inhibitory effect of the product” value in test [1] (0-20 mM 7-KLCA) is reported as “strong inhibitor”. Further, the “activity in the presence of product” value in test [1] (1 mM 7-KLCA, Cd7α-HSDH with N-His-Tag) stood at 28%. Also, the residual activity entry in test [1] (2.5 mM 7-KLCA, Cd7α-HSDH with N-His-Tag) is given as “about 10%”. For the same molecule, in test [2] (setting [4]), the Km came out at 24.7 µM; the kcat is 0.6 ± 0.0 s⁻¹; the vmax is 1.1 U mg^−1 and 1.1 ± 0.02 U mg^−1.
Consider `NC(=O)c1ccc[n+]([C@@H]2O[C@H](COP(=O)([O-])OP(=O)(O)OC[C@H]3O[C@@H](n4cnc5c(N)ncnc54)[C@H](OP(=O)(O)O)[C@@H]3O)[C@@H](O)[C@H]2O)c1`, for which, in test [2] (setting [5]), the Km was found to be 49.5 µM, the kcat amounted to 80.1 ± 1.6 s⁻¹ and the vmax came out at 159.7 ± 3.2 U mg^−1. Also, in test [2] (setting [6]), the Km was 42.9 µM, the kcat is 5.6 ± 0.2 s⁻¹ and the vmax stood at 11.2 ± 0.4 U mg^−1. Moreover, the substrate inhibition entry in test [2] (setting [7]) is listed as “no substrate inhibition was observed”.
As to `C[C@H](CCC(=O)O)[C@H]1CC[C@H]2[C@@H]3[C@H](O)C[C@@H]4C[C@H](O)CC[C@]4(C)[C@H]3CC[C@]12C` [listing 1 of 2 here], the kcat in test [3] (setting [8]) came out at 9.8 ± 1.9; in test [2] (setting [9]), 4.3 ± 0.1 s⁻¹. Also, the substrate inhibition entry is listed as “strong substrate inhibition” in test [3] (CDCA with the cofactor NAD^+), “unusual strong substrate inhibition” in test [2] (CDCA with the cofactor NAD^+) and “no substrate inhibition was observed” in test [2] (setting [7]). In addition, the vmax was 19.5 ± 3.7 in test [3] (apparent vmax, CDCA varied 5 μM-30 mM, constant 0.5 mM NAD^+, 25° C., pH 8.0); 8.5 U mg^−1 and 8.5 ± 0.1 U mg^−1 in test [2] (setting [9]). In addition, the residual activity entry in test [2] (at 2.5 mM CDCA, cofactor NAD^+, highest activity at 0.1 mM CDCA) was “about 10%”. Moreover, the Km in test [2] (setting [9]) stood at 10.1 µM.
As for `C[C@H](CCC(=O)O)[C@H]1CC[C@H]2[C@@H]3[C@H](O)C[C@@H]4C[C@H](O)CC[C@]4(C)[C@H]3C[C@H](O)[C@]12C`, in test [2] (setting [9]), the Km stood at 117 µM, the kcat came out at 46.1 ± 0.7 s⁻¹ and the vmax came to 91.9 ± 1.4 U mg^−1. In test [2] (oxidation with NADP^+), the “activity of CA oxidation relative to CDCA” value turned out to be 10 times.
Regarding `C[C@H](CCC(=O)O)[C@H]1CC[C@H]2[C@@H]3[C@H](O)C[C@@H]4C[C@H](O)CC[C@]4(C)[C@H]3CC[C@]12C` [listing 2 of 2 here], in test [3] (setting [8]), the Km was 340 µM. Further, in test [3] (read-out: Kl, substrate inhibition, CDCA varied 5 μM-30 mM, constant 0.5 mM NAD^+), the Ki turned out to be 4.9 mM.
